PubChem BioAssay AID2314 (National Center for Advancing Translational Sciences (NCATS), 2010)
This is a selection; strong and weak results do not stand in their true shares. Calls of active or inactive are those of the source. Cut-off read from the data, not from the text of the source: active = max response mostly above about 13% (no sharp cut-off); inactive = mostly below about 14%.

experiment: Cycloheximide Counterscreen for Small Molecule Inhibitors of Shiga Toxin; details: cell reporter, cycloheximide protein synthesis inhibition counterscreen; hits give high values; note: read at 38.3 µM for the half of the compounds with a filed dose; 0% is about no effect

Compound	max response
Cc1cc(C)cc(OP(C)(=O)Nc2ccccn2)c1 (centres undefined)	inactive: -4.18%
CP(=O)(Nc1cccc(Br)c1)Oc1ccccc1 (centres undefined)	inactive: -6.37%
CC(C)N(CCCl)C(C)C	inactive: -2.85%
O=[N+]([O-])c1cc([N+](=O)[O-])c(-n2nnc3ccccc32)c([N+](=O)[O-])c1	inactive: -2.27%
Cc1nc2ccc3ccccc3c2s1.O=[N+]([O-])c1cc([N+](=O)[O-])c(O)c([N+](=O)[O-])c1	inactive: 14.9%
O=[N+]([O-])c1cc([N+](=O)[O-])c(Nc2nnnn2CCO)c([N+](=O)[O-])c1	inactive: -3.82%
CCCOc1ccc(NP(C)(=O)Oc2ccc(Cl)cc2)cc1 (centres undefined)	inactive: -1.91%
CP(=O)(Nc1ccc(SC(F)(F)F)cc1)Oc1ccccc1 (centres undefined)	inactive: -0.981%
CN1CCCCC1COC(=O)C1(O)c2ccccc2CCc2ccccc21 (centres undefined)	inactive: -4.68%
COc1ccccc1OP(C)(=O)Nc1c(C)cccc1C (centres undefined)	inactive: 3.59%
CP(=O)(Nc1ccccc1Br)Oc1ccccc1 (centres undefined)	inactive: -0.39%
COc1ccccc1OP(C)(=O)Nc1ccccc1 (centres undefined)	inactive: 4.39%
CP(=S)(Nn1cnnc1)Oc1ccccc1 (centres undefined)	inactive: -1.98%
Cc1cc(C)cc(OP(C)(=O)Nc2ccc(SC(F)(F)F)cc2)c1 (centres undefined)	inactive: -2.59%
CP(=O)(NC(=O)Nc1ccccc1)Oc1ccccc1 (centres undefined)	inactive: -3.85%
CCc1ccc(OP(C)(=O)N2CCN(c3ccc([N+](=O)[O-])cc3)CC2)cc1 (centres undefined)	inactive: 10.8%
CP(=O)(Oc1ccccc1)OC(c1ccccc1)C(F)(F)F (centres undefined)	inactive: -1.02%

Compound	max response
CP(=O)(Nc1ccc(SC(F)(F)F)cc1)Oc1ccc(Cl)cc1 (centres undefined)	inactive: -1.69%
Cc1cccc(C)c1OP(C)(=O)Nc1ccc(SC(F)(F)F)cc1 (centres undefined)	inactive: -6.15%
CP(=O)(Nc1ccccn1)Oc1ccc(Cl)cc1 (centres undefined)	inactive: -4.35%
CCOC(=O)c1ccc(NP(C)(=O)Oc2ccc(OC)cc2)cc1 (centres undefined)	inactive: -4.06%
CCOP(C)(=S)SCC(=O)NC(C)C(=O)O (centres undefined)	inactive: -0.429%
CCN(CC)CCCOC(=O)C(O)(c1ccccc1)c1ccccc1	inactive: 1.82%
O=[N+]([O-])c1ccc2c(c1)C=Nc1ccccc1O2	inactive: -4.36%
Cc1cccc(C)c1OP(C)(N)=O (centres undefined)	inactive: -1.99%
O=C(O)C(O)(c1ccccc1)c1ccccc1	inactive: -5.28%
CC(C)(C)c1ccc(OP(C)(=O)Nc2ccc(SC(F)(F)F)cc2)cc1 (centres undefined)	inactive: -0.368%
O=C(O)C1(O)c2ccccc2-c2ccccc21	inactive: 6.24%
Cc1cc(C)cc(OP(C)(N)=O)c1 (centres undefined)	inactive: -6.94%
COc1ccc(OP(C)(=O)Nc2cccc(F)c2)cc1 (centres undefined)	inactive: -1.59%
COc1ccccc1OP(C)(=O)Nc1cc(Cl)ccc1C (centres undefined)	inactive: 4.11%
Cc1ccc(NP(C)(=O)Oc2ccccc2)c(C)c1 (centres undefined)	inactive: 1.46%
COc1ccccc1OP(C)(=O)Nc1ccc(C)cc1 (centres undefined)	inactive: -2.16%
CCOC(=O)c1ccc(NP(C)(=O)Oc2ccccc2)cc1 (centres undefined)	inactive: -0.758%
